Results of unrelated studies side by side (data: NIAID ChemDB).

All rows: tests in culture; species: Candida albicans; measure: MIC

An empty or dashed field is not shown. Lines come from different laboratories, so protocols vary.

{"structure": "Nc1nccc(CC(N)C(=O)N[C@H]2[C@@H](O)[C@H](n3cnc4c(N)ncnc43)O[C@@H]2C(=O)O)n1", "strain or isolate": "FP633", "result": "12.5 µg/mL"}
{"structure": "CC(C)(O)c1cn(-c2ccc(Cl)cc2)nn1", "strain or isolate": "URM 4819", "method": "broth dilution", "result": "128 µg/mL"}
{"structure": "CCCCCCCCCCOc1ccc(CON2C(N)=NC(N)=NC2(C)C)cc1", "result": "15 µg/mL"}
{"structure": "C[C@H]1[C@H](O)[C@@H](C)/C=C/C=C/C=C/C=C/C=C/C=C/C=C/[C@H](O[C@@H]2O[C@H](C)[C@@H](O)[C@H](N)[C@@H]2O)C[C@@H]2O[C@](O)(C[C@@H](O)C[C@@H](O)CC[C@H](O)[C@@H](O)C[C@@H](O)CC(=O)O[C@H]1C)C[C@H](O)[C@H]2C(=O)O", "strain or isolate": "ATCC 64548", "result": "0.5 µg/mL"}
{"structure": "Nc1ncnc2c1ncn2[C@@H]1O[C@H](C(=O)O)[C@@H](NC(=O)[C@H](N)CSC2C=CCCC2)[C@H]1O", "strain or isolate": "FP633", "result": "12.5 µg/mL"}
{"structure": "C=CCn1cc(-c2ccc(Cl)cc2)c(C(c2ccc(Cl)cc2Cl)n2ccnc2)c1", "result": "0.15 µg/mL"}
{"structure": "C[C@H]1[C@H](O)[C@@H](C)/C=C/C=C/C=C/C=C/C=C/C=C/C=C/[C@H](O[C@@H]2O[C@H](C)[C@@H](O)[C@H](N)[C@@H]2O)C[C@@H]2O[C@](O)(C[C@@H](O)C[C@@H](O)CC[C@H](O)[C@@H](O)C[C@@H](O)CC(=O)O[C@H]1C)C[C@H](O)[C@H]2C(=O)O", "strain or isolate": "Darlington", "result": "2 µg/mL"}
{"structure": "CCOP(=O)(CCNC(=O)[C@H]1O[C@@H](n2cnc3c(N)ncnc32)[C@H](O)[C@@H]1NC(=O)[C@H](N)CSCc1ccccc1)OCC", "strain or isolate": "FP633", "result": "3.1 µg/mL"}
{"structure": "CN[C@H]1CCCNC(=O)[C@@H]2C[C@H](N)CN2C(=O)[C@H]([C@@H](C)O)NC(=O)[C@H](CCc2ccc(O)cc2)NC(=O)[C@@H]2C[C@@H](O)CN2C(=O)[C@H]([C@@H](C)O)NC1=O", "strain or isolate": "ATCC 62376", "result": "12.5 µg/mL"}
{"structure": "COc1ccc2c(C)c(C(=O)c3ccccc3)oc2c1", "strain or isolate": "Clinical isolate", "result": "25 µg/mL"}
{"structure": "O=C(Nc1nc2ccc(NC(=O)[C@@H]3CCC[C@H](NCc4ccc5ccccc5c4)C3)cc2s1)C1CCCC1", "strain or isolate": "IFM 46909 (TIMM 3165)", "result": "3.13 µM"}
{"structure": "Cn1cc(-c2ccccc2)c(C(c2ccc3ccccc3c2)n2ccnc2)c1", "result": "63 µg/mL"}
{"structure": "Cc1c(/C(=N\\O)c2ccccc2)oc2ccccc12", "strain or isolate": "NRRL Y-27077", "result": "25 µg/mL"}
{"structure": "Nc1ncnc2c1ncn2[C@@H]1O[C@H](C(=O)O)[C@@H](NC(=O)C(N)c2ccccc2)[C@H]1O", "strain or isolate": "FP633", "result": ">100 µg/mL"}
{"structure": "CCCCCOc1ccc(-c2ccc(-c3ccc(C(=O)N[C@H]4CCCNC(=O)[C@@H]5C[C@H](NC(=O)c6ccccc6)CN5C(=O)[C@H]([C@@H](C)O)NC(=O)[C@H](CCc5ccc(O)cc5)NC(=O)[C@@H]5C[C@@H](O)CN5C(=O)[C@H]([C@@H](C)O)NC4=O)cc3)cc2)cc1", "strain or isolate": "ATCC 62376", "result": "6.25 µg/mL"}
{"structure": "O=C(c1ccc(Cl)cc1)c1oc2ccccc2c1Cn1cncn1", "strain or isolate": "Clinical isolate", "result": "25 µg/mL"}
{"structure": "CCCC(O)C/C=C\\C=C\\C(=O)OC[C@H]1O[C@@H](O[C@@H]2[C@H](OC(=O)/C=C/C=C/CC(O)/C(C)=C/C=C/CCC(C)CC)[C@@H](O)[C@]3(OCc4cc(O)cc(O)c43)O[C@@H]2CO)[C@H](O)[C@@H](O)[C@H]1O", "strain or isolate": "MY1783", "result": "2 µg/mL"}
{"structure": "CCCCCOc1ccc(-c2ccc(-c3ccc(C(=O)N[C@H]4CCCNC(=O)[C@@H]5C[C@H](NCc6ccccc6)CN5C(=O)[C@H]([C@@H](C)O)NC(=O)[C@H](CCc5ccc(O)cc5)NC(=O)[C@@H]5C[C@@H](O)CN5C(=O)[C@H]([C@@H](C)O)NC4=O)cc3)cc2)cc1", "strain or isolate": "ATCC 38247", "result": "6.25 µg/mL"}
{"structure": "CCCCCOc1ccc(-c2ccc(-c3ccc(C(=O)N[C@H]4CCCNC(=O)[C@@H]5C[C@H](N)CN5C(=O)[C@H](CO)NC(=O)C(CCc5ccc(O)cc5)NC(=O)[C@@H]5C[C@@H](O)CN5C(=O)[C@H]([C@@H](C)O)NC4=O)cc3)cc2)cc1", "strain or isolate": "ATCC 62376", "result": "0.1 µg/mL"}
{"structure": "CCC(C)CC(C)CCCCCCCCC(=O)NC1C[C@H](O)[C@@H](O)NC(=O)[C@@H]2[C@@H](O)[C@@H](C)CN2C(=O)[C@H]([C@H](O)CC(N)=O)NC(=O)[C@H](C(O)[C@H](O)c2ccc(O)cc2)NC(=O)[C@@H]2C[C@@H](O)CN2C(=O)[C@H]([C@@H](C)O)NC1=O", "strain or isolate": "MY1750", "result": "0.25 µg/mL"}
{"structure": "O=c1c(OC2CCCC2)c(N2CCN(S(=O)(=O)NCc3ccccc3)CC2)cnn1-c1cccc(Cl)c1", "strain or isolate": "CLY16996", "method": "broth dilution", "result": "8 µg/mL"}
{"structure": "CCCCCCCCON1CCN(c2ccc(-c3ccc(C(=O)N[C@H]4CCCNC(=O)C5C[C@H](N)CN5C(=O)C(C(C)O)NC(=O)C(CCc5ccc(O)cc5)NC(=O)C5C[C@@H](O)CN5C(=O)C(C(C)O)NC4=O)cc3)cc2)CC1", "strain or isolate": "ATCC 10231", "result": "0.2 µg/mL"}
{"structure": "COc1cc(CON2C(N)=NC(N)=NC2(C)C)cc(OC)c1", "result": ">240 µg/mL"}
{"structure": "Nc1ncnc2c1ncn2[C@@H]1O[C@H](C(=O)O)[C@@H](NC(=O)[C@H](N)CSC2CCCCO2)[C@H]1O", "strain or isolate": "FP633", "result": ">100 µg/mL"}
{"structure": "CC1(C)N=C(N)N=C(N)N1OCc1cccc2ccccc12", "result": ">240 µg/mL"}
{"structure": "NC(=NC1CCCC1)c1ccc(-c2ccc(-c3ccc(C(N)=NC4CCCC4)cc3)o2)cc1", "strain or isolate": "Isolate CA1548", "result": "12.5 µg/mL"}
{"structure": "O/N=C(\\c1ccccc1)c1oc2ccccc2c1Cn1ccnc1", "strain or isolate": "NRRL Y-27077", "result": "12.5 µg/mL"}
{"structure": "C[C@@H](O)[C@@H]1NC(=O)[C@H](CCc2ccc(O)cc2)NC(=O)[C@@H]2C[C@@H](O)CN2C(=O)[C@H]([C@@H](C)O)NC(=O)[C@@H](NC(=O)c2ccccc2)CCCNC(=O)[C@@H]2C[C@H](N)CN2C1=O", "strain or isolate": "ATCC 62376", "result": ">100 µg/mL"}
{"structure": "CCCCCOc1ccc(-c2ccc(-c3ccc(C(=O)N[C@H]4CCCNC(=O)[C@@H]5C[C@H](N)CN5C(=O)[C@H](CCC(=O)O)NC(=O)C(CCc5ccc(O)cc5)NC(=O)[C@@H]5C[C@@H](O)CN5C(=O)[C@H]([C@@H](C)O)NC4=O)cc3)cc2)cc1", "strain or isolate": "ATCC 62376", "result": "0.2 µg/mL"}
{"structure": "CCC1N=C(N)N=C(N)N1OCc1cccc2ccccc12", "result": ">240 µg/mL"}
{"structure": "CC(=C/C=C/C(=O)O)/C=C/C=C(\\C)C(O)C(C)C(=O)O[C@H]1C[C@H](C)C=C2C=C[C@@]3(C)O[C@@H](O)CC(=O)[C@]3(C)[C@H]21", "strain or isolate": "CCH442", "result": "3.12 µg/mL"}
{"structure": "O=[N+]([O-])c1ccc(-c2c[nH]cc2C(c2ccc(Cl)cc2Cl)n2ccnc2)cc1", "result": "4.5 µg/mL"}
{"structure": "CCCCCOc1ccc(-c2ccc(-c3ccc(C(=O)N[C@H]4CCCNC(=O)[C@@H]5C[C@H](CN)CN5C(=O)[C@H]([C@@H](C)O)NC(=O)[C@H](CCc5ccc(O)cc5)NC(=O)[C@@H]5C[C@@H](O)CN5C(=O)[C@H]([C@@H](C)O)NC4=O)cc3)cc2)cc1", "strain or isolate": "ATCC 38247", "result": "0.39 µg/mL"}
{"structure": "COc1ccc(C(Cc2cccc(Cl)c2)n2ccnc2)cc1", "result": "44 µg/mL"}
{"structure": "O=c1c(N2CCOCC2)c(N2CCN(S(=O)(=O)Cc3ccccc3)CC2)cnn1-c1ccccc1", "strain or isolate": "C693", "method": "broth dilution", "result": "100 µg/mL"}
{"structure": "Cc1c(O)cccc1C(=O)N[C@@H](CSc1ccccc1)[C@H](O)CN1C[C@H]2CCCC[C@H]2C[C@H]1C(=O)NC(C)(C)C", "strain or isolate": "I74A", "result": ">64 µg/mL"}
{"structure": "CC1N=C(N)N=C(N)N1OCc1ccc(Cl)c(Cl)c1", "result": ">250 µg/mL"}
{"structure": "CCCCCOc1ccc(-c2ccc(-c3ccc(C(=O)N[C@H]4CCCNC(=O)[C@@H]5C[C@H](NC(=O)c6ccccc6)CN5C(=O)[C@H]([C@@H](C)O)NC(=O)[C@H](CCc5ccc(O)cc5)NC(=O)[C@@H]5C[C@@H](O)CN5C(=O)[C@H]([C@@H](C)O)NC4=O)cc3)cc2)cc1", "strain or isolate": "ATCC 38247", "result": "25 µg/mL"}
{"structure": "CCCCCCCCOc1ccc(N2CCN(c3ccc(C(=O)N[C@H]4CCCNC(=O)C5C[C@H](N)CN5C(=O)C(C(C)O)NC(=O)C(c5ccc(CO)cc5)NC(=O)C5CCCN5C(=O)C(C(C)O)NC4=O)cc3)CC2)cc1", "strain or isolate": "ATCC CCH442", "result": "25 µg/mL"}
{"structure": "O[C@](Cn1cncn1)(Cn1cnc(/C=C/c2ccc(OCC(F)(F)C(F)F)cc2)n1)c1ccc(F)cc1F", "strain or isolate": "Isolate 06-9", "result": "2 µg/mL"}
{"structure": "CCCCCOc1ccc(-c2ccc(-c3ccc(C(=O)N[C@H]4CCCNC(=O)[C@@H]5C[C@H](O)CN5C(=O)[C@H]([C@@H](C)O)NC(=O)[C@H](CCc5ccc(O)cc5)NC(=O)[C@@H]5C[C@@H](O)CN5C(=O)[C@H]([C@@H](C)O)NC4=O)cc3)cc2)cc1", "strain or isolate": "ATCC 38247", "result": "1.56 µg/mL"}
{"structure": "CC(SC[C@@H](N)C(=O)N[C@H]1[C@@H](O)[C@H](n2cnc3c(N)ncnc32)O[C@@H]1C(=O)O)c1ccccc1", "strain or isolate": "FP633", "result": "50 µg/mL"}
{"structure": "CCCCCCCCN1CCN(c2ccc(C(=O)N[C@H]3CCCNC(=O)C4C[C@H](N)CN4C(=O)C(C(C)O)NC(=O)C(CCc4ccc(O)cc4)NC(=O)C4C[C@@H](O)CN4C(=O)C(C(C)O)NC3=O)cc2)CC1", "strain or isolate": "ATCC 10231", "result": "1.56 µg/mL"}
{"structure": "CCCCCCCCOc1ccc(N2CCN(c3ccc(C(=O)N[C@H]4CCCNC(=O)[C@@H]5C[C@H](N)CN5C(=O)[C@H](CCN)NC(=O)[C@H](CCc5ccc(O)cc5)NC(=O)[C@@H]5C[C@@H](O)CN5C(=O)[C@H]([C@@H](C)O)NC4=O)cc3)CC2)cc1", "strain or isolate": "ATCC 62376", "result": "0.2 µg/mL"}

The first 3 rows once more:

structure,strain or isolate,method,result
Nc1nccc(CC(N)C(=O)N[C@H]2[C@@H](O)[C@H](n3cnc4c(N)ncnc43)O[C@@H]2C(=O)O)n1,FP633,-,12.5 µg/mL
CC(C)(O)c1cn(-c2ccc(Cl)cc2)nn1,URM 4819,broth dilution,128 µg/mL
CCCCCCCCCCOc1ccc(CON2C(N)=NC(N)=NC2(C)C)cc1,-,-,15 µg/mL